Here are results for one compound from US9944654B2, “Nargenicin compounds and uses thereof as antibacterial agents” (priority 2014, dated 2018).

Protein sequences, listed by entry. Tags and fused reporters are not part of them.
UniProt Q5HF71, whole entry: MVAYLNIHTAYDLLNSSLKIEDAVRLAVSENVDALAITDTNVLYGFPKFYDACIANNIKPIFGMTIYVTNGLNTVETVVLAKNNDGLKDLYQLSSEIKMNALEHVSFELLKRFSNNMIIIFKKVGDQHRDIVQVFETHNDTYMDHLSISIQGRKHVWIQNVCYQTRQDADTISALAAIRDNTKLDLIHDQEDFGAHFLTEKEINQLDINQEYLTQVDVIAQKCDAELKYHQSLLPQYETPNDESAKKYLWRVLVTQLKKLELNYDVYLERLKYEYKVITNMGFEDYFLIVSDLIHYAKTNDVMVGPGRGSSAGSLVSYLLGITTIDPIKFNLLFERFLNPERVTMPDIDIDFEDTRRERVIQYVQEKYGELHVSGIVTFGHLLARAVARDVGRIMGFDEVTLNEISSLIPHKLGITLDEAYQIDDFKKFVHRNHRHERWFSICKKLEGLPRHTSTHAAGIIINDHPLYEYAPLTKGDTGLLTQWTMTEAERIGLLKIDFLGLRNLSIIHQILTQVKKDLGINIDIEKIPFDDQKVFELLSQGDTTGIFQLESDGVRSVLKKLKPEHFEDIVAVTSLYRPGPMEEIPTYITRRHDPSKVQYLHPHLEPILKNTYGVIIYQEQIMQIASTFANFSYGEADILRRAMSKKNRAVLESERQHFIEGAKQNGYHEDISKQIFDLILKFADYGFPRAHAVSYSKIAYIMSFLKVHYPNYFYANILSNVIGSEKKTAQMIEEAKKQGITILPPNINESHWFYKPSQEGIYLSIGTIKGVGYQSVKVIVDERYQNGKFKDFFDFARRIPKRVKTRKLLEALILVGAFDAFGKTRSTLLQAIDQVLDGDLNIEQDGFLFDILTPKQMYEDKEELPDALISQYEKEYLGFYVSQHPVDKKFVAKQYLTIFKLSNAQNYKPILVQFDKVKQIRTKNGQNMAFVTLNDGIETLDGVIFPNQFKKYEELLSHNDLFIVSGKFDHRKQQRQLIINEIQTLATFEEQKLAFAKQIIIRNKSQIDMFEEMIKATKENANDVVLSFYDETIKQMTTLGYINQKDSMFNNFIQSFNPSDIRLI

The test system of experiment [1] is Pseudomonas aeruginosa MB5890 (CB1101, efflux-deleted). The conditions noted are these: MHII broth; * = some reduction of growth versus control at […].
Experiment [2] has as its target S. aureus DnaE (DNA polymerase III α-subunit homolog from Staphylococcus aureus) (Staphylococcus aureus, UniProt Q5HF71).
The test system of experiment [3] is Staphylococcus aureus MB6266 (MRSA COL). The experiment in a line: Nargenicin antibacterial assay (MIC), S. aureus. It counts as cell-based. The conditions noted are these: MHII broth + 50% human serum; * = some reduction of growth versus control at […].
For experiment [4], the system named is Streptococcus pneumoniae MB6357 (CL 2883). The experiment in a line: Nargenicin antibacterial assay (MIC), S. pneumoniae. The note with it: Isosensitest broth; * = some reduction of growth versus control at […]. It counts as cell-based.

Each structure is given as a SMILES string.

In the case of `CO[C@H]1C[C@H]2C=C[C@H]3[C@H]4O[C@]2(/C(C)=C/[C@@H](C)[C@@H]([C@@H](C)O)OC1=O)[C@@H]3C(O)[C@@H](C)[C@H]4OC(=O)c1ccc[nH]1` (stereo partly shown), the “P. aeruginosa MB5890 efflux-del (MIC)” value in experiment [1] is >64* μg/mL. The “S. aureus DnaE IC50” value in experiment [2] turned out to be 0.008 µg/mL. For the same compound, the “S. aureus COL (MIC)” value in experiment [3] amounted to 16 µg/mL. Further, the “S. pneumoniae MB2883 (MIC)” value in experiment [4] was >64* μg/mL.
